Anti-infective test results gathered from many reports (values: NIAID ChemDB through PubChem).

All rows: tests in culture; species: Mycobacterium tuberculosis

MIC bound comes from a single tested concentration. ECn: concentration that inhibits the pathogen or its effect by n%. "inactive" is the filed call at that dose; no cut-off is given. Neighbouring rows are from separate reports. Inhibition is in % at the dose shown (toxicity tests: loss of growth or viability). MIC50, MIC90 and the like: level of inhibition, or share of isolates inhibited. An empty or dashed field is not shown.

smiles | strain | measure | method | mutations | tested at | value
O=C1N[C@H]2CCCC[C@@H]2C(=O)N1OS(=O)(=O)c1ccccc1 | H37Rv | MIC bound | resazurin |  |  | >6.25 µg/mL
CCCCCCCCCCCO/N=C/c1c2c(O)c3c(O)c(C)c4c(c3c1O)C(=O)[C@@](C)(O/C=C/[C@H](OC)[C@@H](C)[C@@H](OC(C)=O)[C@H](C)[C@H](O)[C@H](C)[C@@H](O)[C@@H](C)/C=C/C=C(/C)C(=O)N2)O4 | H37Rv | MIC |  |  |  | 50 µg/mL
O=C1C2=Nc3ccncc3CN2c2ccc(Cl)cc21 | H37Rv | MIC | resazurin |  |  | 3.7 µg/mL
NC(C/C=C/C(N)(CF)C(=O)O)C(=O)O |  | MIC |  |  |  | >100 µg/mL
CCCCc1nc(Cl)c(C2C(C(=O)Nc3ccc(C)cc3)=C(C)NC(C)=C2C(=O)Nc2ccc(C)cc2)[nH]1 | H37Rv | inhibition | resazurin |  | 6.25 µg/mL | 49%
C=CCn1c(SCC(=O)c2ccccc2)nnc1-c1ccncc1 | H37Rv | inhibition |  |  | 6.25 µg/mL | 6%
O=C(NNC(=O)c1ccc([N+](=O)[O-])c([N+](=O)[O-])c1)c1ccncc1 | H37Rv (ATCC 27294) | MIC |  |  |  | 2 µg/mL
CCCCOCCO/N=C/c1c2c(O)c3c(O)c(C)c4c(c3c1O)C(=O)[C@@](C)(O/C=C/[C@H](OC)[C@@H](C)[C@@H](OC(C)=O)[C@H](C)[C@H](O)[C@H](C)[C@@H](O)[C@@H](C)/C=C/C=C(/C)C(=O)N2)O4 | H37Rv | MIC |  |  |  | 0.2 µg/mL
Cc1cc(Cl)cc2c1-n1c(nc3ccccc3c1=O)C2=O | H37Rv | MIC |  |  |  | 0.06 µg/mL
CO[C@H]1/C=C/O[C@@]2(C)Oc3c(C)c(OC(C)=O)c4c(c3C2=O)C(=O)C=C(NC(=O)/C(C)=C\C=C\[C@H](C)[C@H](O)[C@@H](C)[C@@H](O)[C@@H](C)[C@H](OC(C)=O)[C@@H]1C)C4=O | H37Rv | MIC | BACTEC |  |  | <0.1 µg/mL
CCN(CCN(C)C)c1ccc2nc3n(c(=O)c2c1)-c1ccc(Cl)cc1C3=O | H37Rv | MIC |  |  |  | 0.13 µg/mL
CN(C)/C=C/c1c2c(nc3ccccc13)C(=O)c1ccccc1C2=O | H37Rv | MIC |  |  |  | 0.39 µg/mL
O=C(O)c1ccc2c(=O)c3ccccc3oc2c1 | H37Rv | inhibition |  |  | 16 µg/mL | inactive
BrCc1ccc2ccc3ccc(CBr)nc3c2n1 | H37Rv | inhibition | BACTEC |  | 12.5 µg/mL | 18%
Fc1ccc(-n2c(-c3ccncc3)n[nH]c2=S)cc1 | H37Rv | inhibition |  |  | 6.25 µg/mL | 2%
NC(=O)c1ncc(C(N)=S)nc1N1CCOCC1 | H37Rv | MIC |  |  |  | 50 µg/mL
O=C(NNC(=O)c1ccc(F)cc1F)c1ccncc1 | H37Rv (ATCC 27294) | MIC |  |  |  | 10 µg/mL
N=NC(=O)c1ccccc1Nc1c(O)[nH]c2ccccc12 | H37Rv | inhibition | BACTEC |  | 12.5 µg/mL | 11%
COc1cccc(NC(=O)c2ccc(S(C)(=O)=O)o2)c1 | H37Rv | MIC90 |  |  |  | 200 µg/mL
CC(=O)OCC(COC(C)=O)=C1N=C(c2ccccc2)OC1=O | H37Rv | inhibition | BACTEC |  | 12.5 µg/mL | 19%
CN(C)CCc1c2c(nc3ccccc13)C(=O)c1cccnc1C2=O | H37Rv | MIC |  |  |  | 3.13 µg/mL
O=[N+]([O-])c1ccc2nc(-c3ccccc3-c3nnc(-c4cccc(Cl)c4)o3)[nH]c2c1 | H37Rv | EC50 |  |  |  | <12.5 µg/mL
NC(=O)c1ncc(C(N)=S)nc1NC1CCCCCC1 | H37Rv | MIC |  |  |  | >100 µg/mL
CO[C@H]1/C=C/O[C@@]2(C)Oc3c(C)c(O)c4c(O)c(c(/C=N/OC(c5ccccc5)c5ccccc5)c(O)c4c3C2=O)NC(=O)/C(C)=C\C=C\[C@H](C)[C@H](O)[C@@H](C)[C@@H](O)[C@@H](C)[C@H](OC(C)=O)[C@@H]1C | H37Rv | MIC |  |  |  | 1 µg/mL
CC[C@@H](CO)NCCN[C@@H](CC)CO | H37Rv | MIC | agar | Extensively drug-resistant |  | 30.37 µM
NC(=O)c1ccc2oc3ccccc3c(=O)c2c1 | H37Rv | inhibition |  |  | 16 µg/mL | inactive
CCSc1nnnn1-c1cccc(C)c1 | H37Rv | MIC |  |  |  | 1000 µM
CC(=O)OCCCC/C=C/c1ccc2nc3n(c(=O)c2c1)-c1ccc(Cl)cc1C3=O | H37Rv | MIC |  |  |  | 2 µg/mL
C=C1C(=O)OC2CC(C)C3CC(=O)OCC3(C)CC12 | H37Rv | MIC bound | BACTEC |  |  | >12.5 µg/mL
C=C(CC)CO/N=C/c1c2c(O)c3c(O)c(C)c4c(c3c1O)C(=O)[C@@](C)(O/C=C/[C@H](OC)[C@@H](C)[C@@H](OC(C)=O)[C@H](C)[C@H](O)[C@H](C)[C@@H](O)[C@@H](C)/C=C/C=C(/C)C(=O)N2)O4 | H37Rv | MIC |  |  |  | 0.2 µg/mL
O=C1c2cc(I)ccc2-n2c1nc1ncccc1c2=O | TN1195RFLF:N2 (MDR) | MIC |  |  |  | 0.06 µg/mL
Cc1cccc(-n2nnnc2SC(C)C)c1 | H37Rv | MIC |  |  |  | 250 µM
CCCCc1nc(Cl)c(C2C(C(=O)Nc3ccccc3[N+](=O)[O-])=C(C)NC(C)=C2C(=O)Nc2ccccc2[N+](=O)[O-])[nH]1 | H37Rv | MIC |  |  |  | 3.13 µg/mL
CCCCCCCCc1ccc2c(c1)C(=O)c1nc3ccncc3c(=O)n1-2 | TN1618RFLF:P (MDR) | MIC |  |  |  | <0.015 µg/mL
O=C(NNc1ccc([N+](=O)[O-])cn1)OCCOCCOC(=O)NNc1ccc([N+](=O)[O-])cn1 | H37Rv | MIC | BACTEC |  |  | ≥12.5 µg/mL
CCCCc1nc(Cl)c(C2C(C(=O)Nc3ccc(OC)cc3)=C(C)NC(C)=C2C(=O)Nc2ccc(OC)cc2)[nH]1 | H37Rv | inhibition | resazurin |  | 6.25 µg/mL | 66%
Cc1ccc(N(C(=O)CC(=O)N2N=C(c3ccccc3)C(N=Nc3ccc([N+](=O)[O-])cc3)C2=O)C(=O)c2ccc(Cl)cc2)cc1 | H37Rv | inhibition | BACTEC |  | 12.5 µg/mL | 4%
N#Cc1ccc(Nc2nc(Oc3cccc4cccnc34)nc(N3CCN(c4cccc(C(F)(F)F)c4)CC3)n2)cc1C(F)(F)F | H37Rv | MIC99 | agar |  |  | 6.25 µg/mL
Cc1cc([N+](=O)[O-])cc2c(=O)c3ccccc3oc12 | H37Rv | inhibition |  |  | 16 µg/mL | inactive
O=C(CCCC(=O)NNC(=O)Nc1cccc2ccccc12)NNC(=O)Nc1cccc2ccccc12 | H37Rv | inhibition | BACTEC |  | 12.5 µg/mL | 3%
CCCCNc1nc(C(N)=S)cnc1C(N)=O | H37Rv | MIC |  |  |  | 25 µg/mL
O=C(Nc1ncc([N+](=O)[O-])s1)c1ccc2c(c1)OCO2 | H37Rv | MIC90 |  |  |  | 25 µg/mL
NC(=O)c1ncn([C@@H]2O[C@H](CO)[C@@H](O)[C@H]2O)n1 | H37Rv | MIC bound | BACTEC |  |  | >12.5 µg/mL
CCOC(=O)Nc1nc(NCCCCN(CC)CC)c2c(n1)SC(c1ccccc1)C(c1ccccc1)=N2 | H37Rv | EC50 |  |  |  | >50 µM
O=C(O)CCC(=O)NCCCCOCc1cn(C2CCC(O)C(CO)O2)c(=O)[nH]c1=O | H37Rv | MIC | fluorescence |  |  | 50 µg/mL
CCCCS(=O)(=O)Nc1cc2c(Cl)[nH]nc2cc1C | H37Rv | MIC | resazurin |  |  | >100 µM
CC(=O)Nc1ccc(/C=C2\SC(=S)N(/N=C/c3ccc(NC(C)=O)cc3)C2=O)cc1 | H37Rv | MIC bound | resazurin |  |  | >6.25 µg/mL
Cc1ccc2oc3ccc([N+](=O)[O-])cc3c(=O)c2c1[N+](=O)[O-] | H37Rv | inhibition |  |  | 4 µg/mL | inactive
C[C@@H]1[C@H](O)[C@@H](C)/C=C/C=C/CC/C=C/C=C/C=C/C=C/C(O[C@H]2O[C@H](C)[C@@H](O)[C@H](N)[C@@H]2O)CC2O[C@](O)(CC(O)C(O)CCC(O)CC(O)CC(O)CC(=O)O[C@H]1C)CC(O)C2C(=O)O | H37Rv | MIC | broth dilution |  |  | 0.002 µM
C=C(C=O)c1c2c(nc3ccccc13)C(=O)c1ccccc1C2=O | H37Rv | MIC |  |  |  | 0.2 µg/mL
COc1ccc(N2CCN(c3nc(Nc4ccc(C#N)c(C(F)(F)F)c4)nc(Oc4cccc5cccnc45)n3)CC2)cc1 | H37Rv | MIC99 | BACTEC |  |  | 6.25 µg/mL
CCCN(CCC)c1ccc(N=Nc2ccccc2C(=O)O)cc1 | H37Rv | inhibition | resazurin |  | 6.25 µg/mL | 98%
O=C(CSc1nnc(-c2ccncc2)n1-c1ccc(Br)cc1)c1ccccc1 | H37Rv | MIC |  |  |  | >6.25 µg/mL
N#Cc1ccc(Nc2nc(Oc3cccc4cccnc34)nc(N3CCN(c4ccccn4)CC3)n2)cc1C(F)(F)F | H37Rv | MIC | BACTEC |  |  | >6.25 µg/mL
CC(C)(C)c1ccc(N2CCN(Cc3ccc([N+](=O)[O-])o3)CC2)cc1 | MDR | MIC | resazurin | Isoniazid- and rifampicin-resistant |  | >0.029 µM
CCCCSc1nnnn1-c1cccc(C)c1 | H37Rv | MIC |  |  |  | 61 µM
CS(=O)(=O)c1ccc(CC(=O)c2ccc([N+](=O)[O-])o2)cc1 | H37Rv | MIC90 |  |  |  | 1.17 µg/mL
Cc1cc(C)c(-n2nnnc2SC(C)C)c(C)c1 | H37Rv | MIC |  |  |  | 125 µM
NC(=O)c1ccc2oc3c(C(N)=O)cccc3c(=O)c2c1 | H37Rv | inhibition |  |  | 16 µg/mL | inactive
O=S1(=O)Oc2c(Cl)cc(Cl)cc2S(=O)(=O)Oc2c(Cl)cc(Cl)cc21 | H37Rv | MIC bound | BACTEC |  |  | >12.5 µg/mL
O=C(Cc1cccs1)N[C@@H]1C(=O)N2C(C(=O)[O-])=C(C[n+]3ccccc3)CS[C@H]12 | Isolate 4 | MIC |  |  |  | >16 µg/mL
CC(C)OC(=O)N1CCN(c2ccc(CNC(=O)c3ccc([N+](=O)[O-])o3)cc2)CC1 | H37Rv | MIC90 |  |  |  | 0.05 µg/mL
CN(C)/C=C/c1c2ccccc2nc2ccccc12 | H37Rv | MIC |  |  |  | 21 µg/mL
CCCNNC(=O)c1ccncc1 | H37Rv | MIC |  |  |  | 40 µg/mL
CCCCN(CCCC)c1nc(C(N)=S)cnc1C(N)=O | H37Rv | MIC |  |  |  | 100 µg/mL
CCCSc1nnnn1-c1cccc(C)c1 | H37Rv | MIC |  |  |  | 500 µM
CCN(CC)C(=O)c1cc2c(=O)c3c(ccc4ccccc43)oc2n(C)c1=O | H37Rv | inhibition | BACTEC |  | 12.5 µg/mL | -9%
C=C(NC(CC(C)C)C(=O)N1CCCC1C(=O)O)C1CCCN1C(=O)C(NC(=O)C(C)NC(=O)C(NC(=O)C(NC=O)C(C)CC)C(C)O)C(C)C | MDR | MIC | agar |  |  | 16 µg/mL
O=C(NNC(=O)c1cc(Cl)ccc1[N+](=O)[O-])c1ccncc1 | H37Rv (ATCC 27294) | MIC |  |  |  | 0.5 µg/mL
CCCCCS(=O)(=O)Nc1ccc2n[nH]c(C)c2c1 | H37Rv | MIC | resazurin |  |  | 0.125 µM
Cc1ccc(N2C(=O)CC(Sc3ccccc3N)C2=O)cc1Cl | H37Rv | MIC bound | BACTEC |  |  | >12.5 µg/mL
NNC(=O)c1ccncc1 | H37Rv | MIC |  |  |  | 1 µg/mL
CO[C@H]1/C=C/O[C@@]2(C)Oc3c(C)c(O)c4c(O)c(c(/C=N/N5CCN(C6CCCC6)CC5)c(O)c4c3C2=O)NC(=O)/C(C)=C\C=C\[C@H](C)[C@H](O)[C@@H](C)[C@@H](O)[C@@H](C)[C@H](OC(C)=O)[C@@H]1C | H37RV ATCC9360 | MIC |  |  |  | 0.05 µg/mL
Nc1c(C(=O)Nc2ccccc2)[n+]([O-])c2ccccc2[n+]1[O-] | H37Rv | MIC | BACTEC |  |  | 6.25 µg/mL
Cc1cccc2c(=O)n3c(nc12)C(=O)c1ccccc1-3 | H37Rv | MIC |  |  |  | 0.5 µg/mL
CC1(c2cccs2)C(=O)N(Cl)C(=O)N1Cl | H37Rv | MIC bound | BACTEC |  |  | >12.5 µg/mL
CN(C)/C=C/c1c2c(nc3ccccc13)C(=O)c1cccnc1C2=O | H37Rv | MIC |  |  |  | 3.13 µg/mL
C=C(C)C1CC2(C)C(C)CC(OC(=O)/C(C)=C\C)CC2C(OC(=O)/C(C)=C\C)C1O | H37Rv | inhibition | BACTEC |  | 12.5 µg/mL | 11%
O=C(NNC(=O)c1cccc(Cl)c1Cl)c1ccncc1 | H37Rv (ATCC 27294) | MIC |  |  |  | 15 µg/mL
O=c1c(O)c(-c2ccc(O)c(O)c2)oc2cc(O)ccc12 | H37Rv | MIC | BACTEC |  |  | ≥12.5 µg/mL
CN(CC(=O)O)c1ccc2c(=O)n3c(nc2c1)C(=O)c1cc(Cl)ccc1-3 | H37Rv | MIC |  |  |  | 1 µg/mL
O=C(O)c1ccc2c(=O)c3ccccc3oc2c1C(=O)O | H37Rv | inhibition |  |  | 8 µg/mL | inactive